Compound potency records, mixed from different reports. Data source: NIAID ChemDB in PubChem.

Shared fields: whole-cell or culture tests; agent: HIV-1; method: syncytia; read-out: inhibition

Lines come from different laboratories, so protocols vary. Percent inhibition refers to the dose given; in toxicity tests it is the harm to the cells.

CCN1c2ncccc2-c2nccn2-c2ccc(N(C)C)nc21 ; tested at: 0.1 µM ; cell line: C8166 ; setting: 7 d ; result: 100%
Cc1ccnc2c1NC(=O)c1cccnc1N2C1CC1 ; strain or isolate: LAV-1 ; tested at: 0.1 µM ; cell line: HT4 + HT4-6C ; result: 71%
CCCCCCCCCCCCCC(=O)O[C@@H]1[C@@H](C)[C@@]2(O)[C@@H](C=C(CO)C[C@]3(O)C(=O)C(C)=C[C@@H]23)[C@@H]2C(C)(C)[C@]12OC(C)=O ; strain or isolate: MN ; tested at: 0.005 µg/mL ; cell line: CD4.401/H9(HIV-1 MN) + CD4 ; result: 79%
NC(N)=NCCC[C@@H](C=O)NC(=O)CNC(=O)[C@@H]1CCCN1C(=O)CNC(=O)[C@@H](N)CCCN=C(N)N ; strain or isolate: IIIB ; tested at: 250 µg/mL ; cell line: H9 ; result: 0%
CC(C)=CCc1cc(-c2coc3cc(O)cc(O)c3c2=O)cc(O)c1O ; tested at: 20 µg/mL ; cell line: MOLT-4/OKM-1(HIV-1) + MOLT-4 ; result: 100%
Cc1cn([C@H]2C[C@H](N=[N+]=[N-])[C@@H](CO)O2)c(=O)[nH]c1=O ; strain or isolate: BRU ; tested at: 0.033 µg/mL ; cell line: MT-4 ; result: 66%
OC[C@H]1NC[C@@H](O)[C@@H](O)[C@@H]1O ; strain or isolate: CLB 32 ; tested at: 1000 µM ; cell line: U-937 ; result: 0%
COc1cc([C@@H]2c3cc4c(cc3[C@H](O)[C@H]3COC(=O)[C@H]23)OCO4)cc(OC)c1OC ; strain or isolate: IIIB ; tested at: 0.007 µM ; cell line: H9 ; result: 84%
OCCN1CCN(CC/C=C2\c3ccccc3Sc3ccc(C(F)(F)F)cc32)CC1 ; strain or isolate: IIIB ; tested at: 10 µg/mL ; cell line: MOLT-3 ; result: 43%
Nc1c(S(=O)(=O)O)cc2c3c(cc(S(=O)(=O)O)cc13)C(=O)N(NC(=O)N/N=C/c1cccc(C=O)c1)C2=O ; tested at: 10 µM ; cell line: MT-2 ; result: 0%
OCCN1CCN(CC/C=C2/c3ccccc3Sc3ccc(C(F)(F)F)cc32)CC1 ; strain or isolate: IIIB ; tested at: 2 µg/mL ; cell line: MOLT-3 ; result: 34%
COc1cc(C[C@@](O)(C(N)=O)[C@H](CO)Cc2ccc(OC)c(OC)c2)ccc1O ; strain or isolate: IIIB ; tested at: 1.8 µM ; cell line: H9 ; result: 93%
Nc1nc2c(ncn2[C@H]2CC[C@@H](CO)O2)c(=O)[nH]1 ; strain or isolate: IIIB ; tested at: 0.01 µM ; cell line: MT-2 ; result: 28%
COc1c2c(cc3oc(=O)c(-c4ccc(O)cc4O)cc13)OC(C)(CO)CC2 ; tested at: 20 µg/mL ; cell line: MOLT-4/OKM-1(HIV-1) + MOLT-4 ; result: 100%
COC(=O)[C@@H](C)NC(=O)c1c(C)cc2c(c1O)-c1c(cc3c(c1O)C(=O)c1cc(OC)cc(O)c1C3=O)[C@H](O)[C@H]2O[C@@H]1O[C@H](C)[C@H](N)[C@H](O[C@@H]2OC[C@@H](O)[C@H](O)[C@H]2O)[C@H]1O ; strain or isolate: IIIB ; tested at: 30 µg/mL ; cell line: MOLT-4 ; result: 100%
Cc1cn([C@H]2C[C@H](N=[N+]=[N-])[C@@H](CCP(O[Si](C)(C)C)O[Si](C)(C)C)O2)c(=O)[nH]c1=O ; strain or isolate: IIIB ; tested at: 400 µM ; cell line: CEM ; result: 0%
CCCCC[C@H](O)/C=C/[C@H]1[C@H](O)CC(=O)[C@@H]1C/C=C\CCCC(=O)O ; strain or isolate: IIIB ; tested at: 40 µM ; cell line: C8166 ; result: 0%
COc1cc(O)c2c(c1)C(=O)c1c(cc3c(c1O)-c1c(cc(C)c(C(=O)N[C@H](C)C(=O)O)c1O)[C@H](O[C@@H]1O[C@H](C)[C@H](N)[C@H](O[C@@H]4OC[C@@H](O)[C@H](O)[C@@H]4O)[C@H]1O)[C@H]3O)C2=O ; strain or isolate: IIIB ; tested at: 10 µg/mL ; cell line: MOLT-4 ; result: 100%
CCCCCN1CC[C@H](c2ccc(F)cc2)[C@@H](COc2ccc3c(c2)OCCO3)C1 ; strain or isolate: IIIB ; tested at: 4 µg/mL ; cell line: MOLT-3 ; result: 20%
NCC(=O)N1CCC[C@H]1C=O ; strain or isolate: IIIB ; tested at: 250 µg/mL ; cell line: H9 ; result: 75%
COc1ccc(OC[C@@H]2CNCC[C@H]2c2ccccc2)cc1 ; strain or isolate: IIIB ; tested at: 4 µg/mL ; cell line: MOLT-3 ; result: 5%
NCC(=O)N1CCC[C@H]1C(=O)NCC(=O)N[C@H](C=O)CCCN=C(N)N ; strain or isolate: IIIB ; tested at: 25 µg/mL ; cell line: H9 ; result: 0%
CCCCC[C@H](O)/C=C/[C@H]1C=CC(=O)[C@@H]1C/C=C\CCCC(=O)O ; strain or isolate: IIIB ; tested at: 20 µM ; cell line: C8166 ; result: 99%
CN=C1CN=C(c2ccc[nH]2)c2cc(Cl)ccc2N1 ; strain or isolate: LAV-1 ; tested at: 10 µM ; cell line: HT4 + HT4-6C ; result: 99%
CC(=O)O[C@H]1C[C@@]2(C)[C@@H](C[C@@H](O)[C@H]3[C@@]4(C)CC[C@@H](O)[C@@H](C)[C@@H]4CC[C@@]32C)/C1=C(\CCC=C(C)C)C(=O)O ; strain or isolate: ARV-2 ; tested at: 100 µg/mL ; cell line: C8166 ; result: 100%
O=S(=O)(O)c1cc(N=C=S)ccc1/C=C/c1ccc(N=C=S)cc1S(=O)(=O)O ; strain or isolate: GB8 ; tested at: 50 µg/mL ; cell line: JM ; result: 100%
NC(N)=NCCC[C@@H](C=O)NC(=O)CNC(=O)[C@@H]1CCCN1 ; strain or isolate: IIIB ; tested at: 250 µg/mL ; cell line: H9 ; result: 0%
OC[C@H]1[C@@H](O)[C@H](O)[C@H]2[C@@H](O)CCN21 ; strain or isolate: GB8 ; tested at: 1000 µM ; cell line: JM ; result: 0%
CNCCC=C1c2ccccc2CCc2ccccc21 ; strain or isolate: IIIB ; tested at: 5 µg/mL ; cell line: MOLT-3 ; result: 24%
CCN1c2ncccc2-c2ncc(C)n2-c2ccc(OC)nc21 ; tested at: 0.01 µM ; cell line: C8166 ; setting: 7 d ; result: 100%
O=C(OC[C@H]1O[C@@H](OC(=O)c2cc(O)c(O)c(O)c2)[C@H](O)[C@@H](OC(=O)c2cc(O)c(O)c(O)c2)[C@@H]1O)c1cc(O)c(O)c(O)c1 ; strain or isolate: IIIB ; tested at: 33 µg/mL ; cell line: MOLT-3 ; result: 82%
c1cc2c(cc1[C@H]1OC[C@H]3[C@@H]1CO[C@@H]3c1ccc3c(c1)OCO3)OCO2 ; strain or isolate: IIIB ; tested at: 8.2 µM ; cell line: H9 ; result: 84%
O[C@H]1[C@H](O)[C@@H](O)CN2CC[C@H](O)[C@H]12 ; strain or isolate: GB8 ; tested at: 250 µM ; cell line: JM ; result: 98.9%
CN1C(=O)CN(c2ccccc2)Cc2nc(Cl)ccc21 ; strain or isolate: BRU ; tested at: 5 µg/mL ; cell line: MT-4 ; result: 66%
COc1ccc(OC[C@H]2CN(C)CC[C@@H]2c2ccccc2)cc1 ; strain or isolate: IIIB ; tested at: 4 µg/mL ; cell line: MOLT-3 ; result: 20%
O=C1CN(c2ccccc2)Cc2nc(Cl)ccc2N1 ; strain or isolate: BRU ; tested at: 2.5 µg/mL ; cell line: MT-4 ; result: 66%
CN1CC[C@@H](c2ccccc2)[C@H](COc2ccc3c(c2)OCCO3)C1 ; strain or isolate: IIIB ; tested at: 0.8 µg/mL ; cell line: MOLT-3 ; result: 3%
OC[C@@H]1[C@@H](O)[C@H](O)[C@@H]2[C@@H](O)CCN21 ; strain or isolate: GB8 ; tested at: 1000 µM ; cell line: JM ; result: 13%
Fc1ccc([C@H]2CCNC[C@@H]2COc2ccc3c(c2)OCCO3)cc1 ; strain or isolate: IIIB ; tested at: 4 µg/mL ; cell line: MOLT-3 ; result: 12%
COc1cc(C[C@H]2C(=O)OC[C@@H]2Cc2ccc(OC)c(OC)c2)ccc1O ; strain or isolate: IIIB ; tested at: 0.13 µM ; cell line: H9 ; result: 81%

A second listing of 3 rows from above:

CCCCC[C@H](O)/C=C/[C@H]1[C@H](O)CC(=O)[C@@H]1C/C=C\CCCC(=O)O ; strain or isolate: IIIB ; tested at: 40 µM ; cell line: C8166 ; result: 0%
O=C1CN(c2ccccc2)Cc2nc(Cl)ccc2N1 ; strain or isolate: BRU ; tested at: 2.5 µg/mL ; cell line: MT-4 ; result: 66%
O[C@H]1[C@H](O)[C@@H](O)CN2CC[C@H](O)[C@H]12 ; strain or isolate: GB8 ; tested at: 250 µM ; cell line: JM ; result: 98.9%